Here are results for 1 compound from PMC12216609, “Inhibitors of eIF1A-ribosome interaction unveil uORF-dependent regulation of translation initiation and antitumor and antiviral effects” (The EMBO Journal, 2025).

The test system of this experiment is regulatory CUG of SARS-CoV-2 ORF7a 5'UTR in HEK293T cells. Kind of experiment: SARS-CoV-2 ORF7a 5'UTR CUG (Renilla) / AUG (firefly) reporter ratio. In kind it is cell-based. As to conditions: for AUG, normalized to DMSO, Average(%): RL - ATG reporter.

Several values for one entry are separate records, joined by “and”; a condition that tells them apart may be missing. Identical values can stand only once.

Turning to `COc1cc2nccc(Oc3ccc(NC(=O)Nc4cc(C)on4)c(Cl)c3)c2cc1OC`, the “normalized to DMSO” value was 0.442 and 0.377 and 0.424. Besides, the “AUG, normalized to DMSO, Average(%)” value (0.5 uM, average of 4 repeats) was 95.29%. The “AUG, normalized to DMSO, Average(%)” value (10 uM, average of repeats) is 90.56%.
